From patent US9937234B2, “Compositions and methods for using and identifying antimicrobial agents” (priority 2013, dated 2018)
“Also recorded” adds a separate entry of the source.

Tested on: B. anthracis spores and vegetative cells
Type: cell-based, Bacillus anthracis

human CXCL10
localization in spores: localized internal to (not outside) the protective exosporium layer of the spores; also recorded: localizes to spore structures within and internal to the exosporium, namely, to the spore coat and spore cortex
localization in vegetative cells: localized primarily to the cell membrane; also recorded: localizes to the cell membrane
